Pooled drug test results. Numbers come from NIAID ChemDB, via PubChem.

All rows: growth or infection tests; organism: Hepatitis C virus; cells: Huh7; measure: EC50

An empty or dashed field is not shown. Lines come from different laboratories, so protocols vary. Two numbers with a dash give a range or band. ECn: concentration that inhibits the pathogen or its effect by n%.

structure | strain or isolate | method | value
CN(c1ccccc1/C=N/NC(=O)Cc1ccccc1)S(=O)(=O)c1ccc(C(F)(F)F)cc1 |  | replicon | <5 µM
CNC(=O)c1c(-c2ccc(F)cc2)oc2cc(N(C)S(C)(=O)=O)c(OCc3csc(C)n3)cc12 |  | replicon | <1 µM
C=C[C@H]1C[C@@]1(NC(=O)[C@@H]1C[C@@H](Oc2cc(-c3ccccc3)nc3cc(OC)ccc23)CN1C(=O)[C@@H](NC(=O)OC(C)(C)C)C(C)(C)C)C(=O)NS(=O)(=O)C1(CCOCc2ccccc2)CC1 | 1b | replicon | <0.05 µM
CNC(=O)c1cnccc1Nc1nc(-c2cc(Cl)ccc2F)nc2nc(NCCOC)ccc12 |  | replicon | >10 µM
Nc1nc2cnc(N3CCC(Oc4cc(F)ccc4Br)CC3)nc2s1 | GT1b | PCR | 0.0083 µM
C=COC(=O)N[C@H](C(=O)N1C[C@H](Oc2cc(-c3ccccc3)nc3cc(OC)ccc23)C[C@H]1C(=O)N[C@]1(C(=O)NS(=O)(=O)C2CC2)C[C@H]1C=C)C(C)(C)C | 1b | replicon | <0.05 µM
NC(=S)Nc1ccc(OCc2ccccc2)cc1 |  | replicon | <1 µM
CS(=O)(=O)c1ccc(CC(=O)N/N=C/c2ccccc2OS(=O)(=O)c2ccc(C(F)(F)F)cc2)cc1 |  | replicon | >50 µM
CNC(=O)c1c(-c2ccc(F)cc2)oc2cc(N(C)S(C)(=O)=O)c(OCc3ccc4c(c3)C(=O)OC(C)(C)O4)cc12 |  | replicon | <1 µM
CCCC1CCC(c2ccc(NC(N)=S)cc2)CC1 |  | replicon | <1 µM
CNC(=O)c1c(-c2ccc(F)cc2)oc2cc(NS(C)(=O)=O)c(OC(C)C)cc12 |  | replicon | <1 µM
NC(=S)NCc1ccc(-c2ccccc2)cc1 |  | replicon | <1 µM
CCc1cc2c(C(=O)NC)c(-c3ccc(F)cc3)oc2cc1C(C)(C)O |  | replicon | <1 µM
CC(=O)Nc1ccc(-c2ccc3nc(N)nc(N4CCOCC4)c3c2)cc1 |  |  | 1–10 µM
COc1ccc2c(O[C@@H]3C[C@H]4C(=O)N[C@]5(C(=O)O)C[C@H]5/C=C\CCCCC[C@H](NC(=O)OC5CCCC5)C(=O)N4C3)cc(-c3csc(NC(C)C)n3)nc2c1 | WILD TYPE | replicon | 0.001 µM
CCNc1ncnc2ccc(-c3ccc(F)cc3)cc12 |  |  | 0.3–1 µM
Fc1ccc(Cl)cc1-c1nc(Nc2ccncc2C(F)(F)F)c2cccnc2n1 |  | replicon | 25 µM
COc1ccc(CC(=O)N/N=C/c2ccccc2OS(=O)(=O)c2ccc(C(F)(F)F)cc2)cc1OC |  | replicon | <5 µM
CNC(=O)c1c(-c2ccc(F)cc2)oc2cc(N(CCO)S(C)(=O)=O)c(OC(C)C)cc12 |  | replicon | <10 µM
CCOc1nc(N)nc2ccc(-c3ccc(C(=O)NC4CCCC4)cc3)nc12 |  | replicon | 0.3–1 µM
COc1cccc(CC(=O)N/N=C/c2ccccc2OS(=O)(=O)c2cc(Cl)sc2Cl)c1 |  | replicon | <5 µM
C=CC1CC1(NC(=O)[C@@H]1C[C@@H](Oc2cc(-c3ccccc3)nc3cc(OC)ccc23)CN1C(=O)[C@@H](NC(=O)OC(C)(C)C)C(C)(C)C)C(=O)NS(C)(=O)=O | 1b | replicon | <0.5 µM
Nc1ccc2c(Nc3ccncc3F)nc(-c3cc(Cl)ccc3F)nc2n1 |  | replicon | >10 µM
C=C[C@H]1C[C@@]1(NC(=O)[C@@H]1C[C@@H](Oc2ccnc3cc(Cl)ccc23)CN1C(=O)[C@@H](NC(=O)OC1CCCC1)C(C)(C)C)C(=O)NS(=O)(=O)C1(CC2CC2)CC1 | 1b | replicon | 0.05–0.5 µM
OCc1nnc(-c2ccc(N3CCC(Oc4cc(F)ccc4Br)CC3)nn2)o1 | GT1a | PCR | 0.0009 µM
C=C[C@H]1C[C@@]1(NC(=O)[C@@H]1C[C@@H](Oc2cc(-c3ccccc3)nc3cc(OC)ccc23)CN1C(=O)[C@@H](NC(=O)OCC1CC1)C(C)(C)C)C(=O)NS(=O)(=O)C1(Cc2ccccc2)CC1 | 1b | replicon | 0.05–0.5 µM
NC(=S)Nc1cccc(OCc2ccc(-c3ccccc3)cc2)c1 |  | replicon | <1 µM
Nc1nc(N2CCOCC2)c2cc(-c3ccc(F)cc3)ccc2n1 |  |  | 0.3–1 µM
C=C[C@@H]1C[C@]1(NC(=O)[C@@H]1C[C@@H](Oc2cc(-c3ccccc3)nc3cc(OC)ccc23)CN1C(=O)[C@@H](NS(C)(=O)=O)C(C)(C)C)C(=O)NS(=O)(=O)C1CC1 | 1b | replicon | <0.5 µM
C[C@H](Oc1cccc(NC(N)=S)c1)c1ccccc1 |  | replicon | <1 µM
CS(=O)(=O)CCNc1nc(N)nc2ccc(-c3ccc(C(=O)NC4CC4)cc3)nc12 |  | replicon | 0.3–1 µM
CNC(=O)c1c(-c2ccc(F)cc2)oc2cc(N3CCOCC3)c(OCCC#N)cc12 |  | replicon | <10 µM
C=C[C@H]1C[C@@]1(NC(=O)[C@@H]1C[C@@H](Oc2cc(-c3ccccc3)nc3cc(OC)ccc23)CN1C(=O)[C@@H](NC(=O)NCC)C(C)(C)C)C(=O)NS(=O)(=O)C1(Cc2ccccc2)CC1 | 1b | replicon | 0.05–0.5 µM
CNC(=O)c1c(-c2ccc(F)cc2)oc2cc(N(C)S(C)(=O)=O)c(OCc3nc(N)n[nH]3)cc12 |  | replicon | <1 µM
C=CC1C[C@@]1(NC(=O)[C@@H]1C[C@@H](Oc2cc(-c3ccccn3)nc3cc(OC)ccc23)CN1C(=O)[C@@H](NC(=O)OC(C)(C)C)C(C)(C)C)C(=O)NS(=O)(=O)C1(Cc2ccccc2)CC1 | 1b | replicon | 0.05–0.5 µM
NC(=S)Nc1cccc(Cc2ccccc2)c1 |  | replicon | <1 µM
CNC(=O)c1c(-c2ccc(F)cc2)oc2cc(C(C)(C)O)c(OC(C)C)cc12 |  | replicon | <1 µM
CCOc1nc(N)nc2ccc(-c3ccc(C(=O)NOC)cc3)nc12 |  | replicon | 0.3–1 µM
COc1ccc(-c2ccc3nc(N)nc(Nc4cccc(Br)c4)c3c2)cc1OC |  |  | <0.3 µM
C=CC1C[C@@]1(NC(=O)[C@@H]1C[C@@H](Oc2cc(-c3ccccc3)nc3cc(OC)ccc23)CN1C(=O)[C@@H](NC(=O)Oc1ccc(OC)cc1)C(C)(C)C)C(=O)NS(=O)(=O)C1(Cc2ccccc2)CC1 | 1b | replicon | 0.05–0.5 µM
C=C[C@@H]1C[C@]1(NC(=O)[C@@H]1C[C@@H](Oc2cc(-c3ccccc3)nc3cc(OC)ccc23)CN1C(=O)[C@@H](NC(=O)OCO)C(C)(C)C)C(=O)NS(=O)(=O)C1CC1 | 1b | replicon | <0.5 µM
CCCNc1ncnc2ccc(-c3ccc(F)cc3)cc12 |  |  | 1–10 µM
C=C[C@@H]1C[C@]1(NC(=O)[C@@H]1C[C@@H](Oc2cc(-c3ccccc3)nc3cc(OC)ccc23)CN1C(=O)[C@@H](NC(=O)c1ccco1)C(C)(C)C)C(=O)NS(=O)(=O)C1CC1 | 1b | replicon | <0.5 µM
O=C(N/N=C/c1ccccc1OS(=O)(=O)c1ccc(C(F)(F)F)cc1)c1c(F)cccc1F |  | replicon | <5 µM
NC(=S)Nc1ccc(OCC2CCCCC2)cc1 |  | replicon | <1 µM
CC(C)Oc1nc(N)nc2ccc(-c3ccc(C(=O)NC(C)(C)C)cc3)nc12 |  | replicon | 0.3–1 µM
C=C[C@@H]1C[C@]1(NC(=O)[C@@H]1C[C@@H](Oc2cc(-c3ccccc3)nc3cc(OC)ccc23)CN1C(=O)[C@@H](NC(=O)OC(C)(C)C)C1CCCC1)C(=O)NS(=O)(=O)C1CCC1 | 1b | replicon | <0.5 µM
NC(=S)Nc1ccc(-c2ccccc2)cc1 |  | replicon | <1 µM
C=CC1C[C@@]1(NC(=O)[C@@H]1C[C@@H](Oc2cc(-c3ccccc3)nc3cc(OC)ccc23)CN1C(=O)[C@@H](NC(=O)OCC(C)(C)C)C(C)(C)C)C(=O)NS(=O)(=O)C1(Cc2ccccc2)CC1 | 1b | replicon | 0.05–0.5 µM
C=C[C@@H]1C[C@]1(NC(=O)[C@@H]1C[C@@H](Oc2cc(-c3ccccc3)nc3cc(OC)ccc23)CN1C(=O)[C@@H](NC(=O)CC(C)(C)C)C(C)(C)C)C(=O)NS(=O)(=O)C1CC1 | 1b | replicon | <0.05 µM
C=C[C@H]1CC1(NC(=O)[C@@H]1C[C@@H](Oc2cc(-c3ccccc3)nc3cc(OC)ccc23)CN1C(=O)[C@@H](NC(=O)OC(C)(C)C)C(C)C)C(=O)O | 1b | replicon | <0.05 µM
Cc1cnccc1Nc1nc(-c2cccc(Cl)c2)nc2ncccc12 |  | replicon | 0.41 µM
C=Cc1cc2oc(-c3ccc(F)cc3)c(C(=O)NC)c2cc1OC(C)C |  | replicon | <10 µM
COc1ccc(CN(Cc2ccc(OC)cc2)c2ccc3c(Nc4ccncc4C(=O)O)nc(-c4cc(Cl)ccc4F)nc3n2)cc1 |  | replicon | >10 µM
Nc1nc(O[C@@H]2CCOC2)c2nc(-c3ccc(N4CCCC4=O)cc3)ccc2n1 |  | replicon | <0.3 µM
C=C[C@H]1C[C@@]1(NC(=O)[C@@H]1C[C@@H](Oc2cc(-c3ccccc3)nc3cc(OC)ccc23)CN1C(=O)[C@@H](NC(=O)OC(C)(C)C)C(C)(C)C)C(=O)NS(=O)(=O)C1(C=C(C)C)CC1 | 1b | replicon | 0.05–0.5 µM

For reference, 5 entries again:

{"structure": "CCOc1nc(N)nc2ccc(-c3ccc(C(=O)NOC)cc3)nc12", "method": "replicon", "value": "0.3–1 µM"}
{"structure": "C=C[C@@H]1C[C@]1(NC(=O)[C@@H]1C[C@@H](Oc2cc(-c3ccccc3)nc3cc(OC)ccc23)CN1C(=O)[C@@H](NC(=O)OCO)C(C)(C)C)C(=O)NS(=O)(=O)C1CC1", "strain or isolate": "1b", "method": "replicon", "value": "<0.5 µM"}
{"structure": "C=C[C@@H]1C[C@]1(NC(=O)[C@@H]1C[C@@H](Oc2cc(-c3ccccc3)nc3cc(OC)ccc23)CN1C(=O)[C@@H](NC(=O)OC(C)(C)C)C1CCCC1)C(=O)NS(=O)(=O)C1CCC1", "strain or isolate": "1b", "method": "replicon", "value": "<0.5 µM"}
{"structure": "CNC(=O)c1c(-c2ccc(F)cc2)oc2cc(N(C)S(C)(=O)=O)c(OCc3ccc4c(c3)C(=O)OC(C)(C)O4)cc12", "method": "replicon", "value": "<1 µM"}
{"structure": "NC(=S)Nc1ccc(OCc2ccccc2)cc1", "method": "replicon", "value": "<1 µM"}